The values below come from article PMC6465249, “Light chain modulates heavy chain conformation to change protection profile of monoclonal antibodies against influenza A viruses” (2019).

Assay [1] deals with H3-AC/68 HA (hemagglutinin of H3N2 A/Aichi/2/1968) (influenza A virus H3N2 A/Aichi/2/1968). Put plainly: crystal structure.
Assay [2] addresses H4-CZ/56 HA (hemagglutinin of H4N6 A/duck/Czech/1956) (influenza A virus H4N6 A/duck/Czech/1956). Nature of the assay: crystal structure.

Turning to “H3-AC/68 HA (hemagglutinin of H3N2 A/Aichi/2/1968) (natural protein)”, the stoichiometry N – broadly, a count of units in the complex or per binding partner – in assay [1] is 3.
Take “H4-CZ/56 HA (hemagglutinin of H4N6 A/duck/Czech/1956) (natural protein)”: in assay [2], the stoichiometry N was found to be 3.
